Reference: ChEMBL document CHEMBL1129975, “Depsides and depsidones as inhibitors of HIV-1 integrase: discovery of novel inhibitors through 3D database searching” (J Med Chem, 1997)

Tests used:
[1] = biological target: T1, Human immunodeficiency virus type 1 integrase (Human immunodeficiency virus 1, UniProt Q7ZJM1); test: Inhibitory concentration of compound against strand transfer of HIV-1 integrase in experiment 1
[2] = biological target: T1, Human immunodeficiency virus type 1 integrase; test: Inhibitory concentration of compound against 3'-processing of HIV-1 integrase in experiment 2
[3] = biological target: T1, Human immunodeficiency virus type 1 integrase; test: Inhibitory concentration of compound against 3'-processing of HIV-1 integrase in experiment 1
[4] = biological target: T1, Human immunodeficiency virus type 1 integrase; test: Inhibitory concentration of compound against strand transfer of HIV-1 integrase in experiment 2

Compound `O=[N+]([O-])c1cc(-c2cc([N+](=O)[O-])c(O)c([N+](=O)[O-])c2)cc([N+](=O)[O-])c1O` has an IC50 [1] of 57.3 µM, an IC50 [2] of 65 µM and an IC50 [3] of 61.7 µM. For the same compound, the IC50 [4] was 35.8 µM.

With `O=[N+]([O-])c1c(Cl)c(O)c(Cl)c([N+](=O)[O-])c1Nc1c([N+](=O)[O-])c(Cl)c(O)c(Cl)c1[N+](=O)[O-]` the IC50 [1] was 4.4 µM, the IC50 [2] was 8.3 µM and the IC50 [3] was 11 µM. For the same compound, the IC50 [4] was 4 µM.

`O=C(O)C(CSSCC(Nc1ccc([N+](=O)[O-])cc1[N+](=O)[O-])C(=O)O)Nc1ccc([N+](=O)[O-])cc1[N+](=O)[O-]` (stereo not given) was tested, and the IC50 [1] was 43 µM, the IC50 [2] was 82 µM and the IC50 [3] was 45.1 µM. For the same compound, the IC50 [4] was 51 µM.

With `O=C(c1ccc(O)cc1O)c1c([N+](=O)[O-])cc([N+](=O)[O-])cc1[N+](=O)[O-]` the IC50 [1] was 88.2 µM, the IC50 [2] was 67 µM and the IC50 [3] was 66.2 µM. For the same compound, the IC50 [4] was 54.4 µM.

Work on `O=[N+]([O-])c1cc(Cc2cc([N+](=O)[O-])c(O)c([N+](=O)[O-])c2)cc([N+](=O)[O-])c1O` yielded an IC50 [1] of 43.9 µM, an IC50 [2] of 61.8 µM and an IC50 [3] of 49.7 µM. For the same compound, the IC50 [4] was 40.5 µM.
